Results of unrelated studies side by side (data: NIAID ChemDB).

All rows: target-level tests

Fold resistance has wild type as its base. Blank or dashed fields: not listed here. Neighbouring rows are from separate reports. ICn: concentration for n% inhibition. Percent inhibition refers to the dose given; in toxicity tests it is the harm to the cells.

SMILES	strain	read by	dose	mutations	target	organism	read-out	result
O=C(Nc1nnc(NCc2cccs2)s1)c1ccc(I)cc1	-	-	-	-	Polymerase	Human cytomegalovirus	IC50	>25 µM
Cc1cn([C@@H]2O[C@H](CO[Si](C)(C)C(C)(C)C)C3(OS(=O)(=O)C=C3N)[C@H]2O[Si](C)(C)C(C)(C)C)c(=O)n(C)c1=O	-	nucleotide incorporation / radiometric	-	RT-N137H	Reverse transcriptase	HIV	fold resistance	0.63
O=C(Nc1nnc(NCCc2cnc[nH]2)s1)c1cc2ccccc2s1	-	-	-	-	Polymerase	Human cytomegalovirus	IC50	>25 µM
O=c1[nH]c(=O)[nH]c(=O)[nH]1	RH	-	-	-	Uracil phosphoribosyltransferase	Toxoplasma gondii	IC50	>2000 µM
O=C(Nc1nnc(NCCC(c2ccccc2)c2ccccc2)s1)c1cc(F)cc(F)c1	-	-	-	-	Polymerase	Human cytomegalovirus	IC50	>25 µM
CN(CC(C)(CCN1CCC(N(CCO)C(=O)OCc2ccc([N+](=O)[O-])cc2)CC1)c1ccsc1)S(=O)(=O)c1ccccc1	-	radiometric	-	-	CCR5	-	IC50	0.002 µM
NS(=O)(=O)c1c[nH]c(=O)[nH]c1=O	RH	-	2000 µM	-	Uracil phosphoribosyltransferase	Toxoplasma gondii	inhibition	<5%
O=P(O)(O)C(Br)(Br)P(=O)(O)O	-	-	-	-	DNA polymerase	Epstein-Barr virus	IC50	>100 µM
CCN(C(=O)OCc1ccccc1)C1CCN(CC[C@](C)(CN(C)S(=O)(=O)c2ccccc2)c2ccccc2)CC1	-	radiometric	-	CCR5-Y37A	CCR5	-	IC50	0.0029 µM
O=C(Nc1nnc(NCC2CCCCC2)s1)c1ccc(Cl)c(Cl)c1	-	-	-	-	Polymerase	Human cytomegalovirus	IC50	>25 µM
O=C(C1CCCCC1)N1C[C@H](CN2CCC(c3ccccc3)CC2)[C@@H](c2ccccc2)C1	-	radiometric	-	CCR5-Y251A	CCR5	-	IC50	0.28 µM
CC(Br)(C(=O)O)P(=O)(O)O	-	-	-	-	DNA polymerase	Herpes simplex virus 2	IC50	>100 µM
O=c1cc(CCl)[nH]c(=O)[nH]1	RH	-	2000 µM	-	Uracil phosphoribosyltransferase	Toxoplasma gondii	inhibition	<5%
CC(C)=CCOc1cc(NC(=S)c2ccoc2C)ccc1Cl	-	nucleotide incorporation / radiometric	-	RT-N137H	Reverse transcriptase	HIV	fold resistance	0.44
O=C(Nc1nnc(NCCc2c[nH]c3ccccc23)s1)c1cccc([N+](=O)[O-])c1	-	-	-	-	Polymerase	Human cytomegalovirus	IC50	>25 µM
O=P(O)(O)C(Cl)(Cl)P(=O)(O)O	-	-	-	-	DNA polymerase	Herpes simplex virus 2	IC50	>100 µM
Cc1cn([C@@H]2O[C@H](CO[Si](C)(C)C(C)(C)C)[C@@]3(OS(=O)(=O)C=C3N)[C@H]2O[Si](C)(C)C(C)(C)C)c(=O)[nH]c1=O	-	nucleotide incorporation / radiometric	-	RT-P140A	Reverse transcriptase	HIV	IC50	1.07 µM
CCCCCCCCCCCNc1nnc(NC(=O)c2ccc(C(F)(F)F)cc2)s1	-	-	-	-	Polymerase	Human cytomegalovirus	IC50	>25 µM
O=C(O)C(Cl)(Cl)P(=O)(O)O	-	-	-	-	DNA polymerase	Epstein-Barr virus	IC50	>100 µM
Cn1cc(Br)c(=O)[nH]c1=O	RH	-	2000 µM	-	Uracil phosphoribosyltransferase	Toxoplasma gondii	inhibition	<5%
CC(C)(C)OC(=O)CCNc1nnc(NC(=O)/C=C/c2ccccc2)s1	-	-	-	-	Polymerase	Human cytomegalovirus	IC50	<25 µM
O=c1nc[nH]c(=O)[nH]1	RH	-	-	-	Uracil phosphoribosyltransferase	Toxoplasma gondii	Ki	930 µM
CC(F)(C(=O)O)P(=O)(O)O	-	-	-	-	DNA polymerase	Herpes simplex virus 2	IC50	>100 µM
CCCCCCCC/C=C/CCCCCCCC(=O)Nc1nnc(NC2CCc3ccccc32)s1	-	-	-	-	Polymerase	Human cytomegalovirus	IC50	>25 µM
O=C(O)c1cc(=O)[nH]c(=O)[nH]1	RH	-	-	-	Uracil phosphoribosyltransferase	Toxoplasma gondii	IC50	>2000 µM

A second listing of 2 rows from above:

SMILES	strain	read by	dose	mutations	target	organism	read-out	result
O=C(Nc1nnc(NCCC(c2ccccc2)c2ccccc2)s1)c1cc(F)cc(F)c1	-	-	-	-	Polymerase	Human cytomegalovirus	IC50	>25 µM
O=c1[nH]c(=O)[nH]c(=O)[nH]1	RH	-	-	-	Uracil phosphoribosyltransferase	Toxoplasma gondii	IC50	>2000 µM